Experimental data as given in PubChem BioAssay AID1259389 (Center for Chemical Genomics, University of Michigan, 2018).
The entries are a selection whose mix differs from that of the whole data set. Active and inactive are the calls of the source. The calls were made as follows: active = z-score of 3 or more in at least 2 runs; inactive = the rest.

Assay: TAR RNA-Tat peptide displacers, HIV-1, primary screen, biochemical, FRET, FAM/TAMRA-labeled Tat (AID 1259389); also: test concentration not given here
Details: HIV-1 TAR RNA, Tat peptide displacement FRET; stronger effect = higher value

Compound | z-score
O=C(COc1ccccc1)OC1CN2CCC1CC2 (stereo unspecified) | inactive: -3.96
CN(C)CCOC(=O)C(O)(c1ccccc1)c1ccccc1 | inactive: 0.91
O=C(O)C1(O)c2ccccc2-c2ccccc21 | inactive: 1.11
O=C(COc1ccc(F)cc1)OC1CN2CCC1CC2 (stereo unspecified) | inactive: -0.58
COc1cc(-n2cnnn2)ccc1-n1cnnn1 | inactive: 0.48
BrC1CSc2nc3ccccc3n2C1c1ccccc1 (stereo unspecified) | inactive: 0.8
CCN(CCCl)Cc1ccccc1C | inactive: 0.36
C=CCN1CCN(CCOC(=O)C(O)(c2ccccc2)c2ccccc2)CC1 | inactive: 1.46
CN(C)CCOC(=O)C(O)(c1ccccc1)C1CCCC1 (stereo unspecified) | inactive: -0.18
O=C(CCc1ccccc1)OC1CN2CCC1CC2 (stereo unspecified) | inactive: 1.1
OCCSCCO | inactive: 0.59
